Anti-infective test results gathered from many reports (values: NIAID ChemDB through PubChem).

Shared fields: toxicity to cultured cells; cells: VERO; measure: CC50

Neighbouring rows are from separate reports. Blank or dashed fields: not listed here. CCn: concentration that lowers growth or viability of the cells by n%.

structure,method,value
O=C(N/N=C/C(F)(F)F)c1ccncc1,-,6.4 µg/mL
CCn1c(N)c(C(N)=O)c(=O)c2ccc(-c3ccncc3)cc21,-,>12.5 µg/mL
O=C([O-])C(F)(F)F.O=C([O-])C(F)(F)F.c1nc([NH2+]C2CC2)c2ncn(C3C[C@@H]4C[NH2+][C@H]3C4)c2n1,MTS,>100 µM
CCN(CC)c1ccc(N=C2C=CC(=O)C(NC(C)=O)=C2)c(C)c1,-,4.1 µg/mL
CCCCn1cc(C(N)=O)c(=O)c2ccc(-c3ccncc3)cc21,-,>6.25 µg/mL
CCCCCC(=O)N1[C@@H]2CC(n3cnc4c(Cl)ncnc43)[C@H]1c1ccccc12,MTS,12 µM
CCn1cc(C(N)=O)c(=O)c2ccccc21,-,>50 µg/mL
CCCS(=O)(=O)NC(=O)C1N=C(c2ccccc2)c2ccccc2NC1=O,-,15 µM
CSc1c2c(c(C)c3c1[nH]c1ccccc13)C=NCC2,-,>10 µg/mL
CC(C)(C)OC(=O)N1[C@@H]2CC(n3cnc4c(NC5CC5)ncnc43)[C@H]1c1ccccc12,MTS,>119 µM
CCC[CH2][Sn]([Cl])([Br])[CH2]CCC.c1cnc2c(c1)ccc1cccnc12,-,0.09 µg/mL
COc1ccc(CC(=O)NC2N=C(c3ccccc3)c3ccccc3NC2=O)cc1,-,1.5 µM
CC(C)(C)OC(=O)N1C[C@H]2CC(n3cnc4c(N)ncnc43)[C@@H]1C2,MTS,>151 µM
NC(=O)c1cn(-c2ccc(F)cc2)c2cc(-c3cc[n+]([O-])cc3)ccc2c1=O,-,>12.5 µg/mL
O=C1NC(=O)[C@H](c2c[nH]c3ccccc23)[C@H]1c1c[nH]c2ccccc12,-,101 µM
c1ccc2c(c1)nnn1c3cnccc3nc21,-,3 µg/mL
Clc1ncnc2c1ncn2C1C[C@@H]2CC[C@H]1[NH2+]2.O=C([O-])C(F)(F)F,MTS,55 µM
O=C1Nc2ccccc2C(c2ccccc2)=NC1NS(=O)(=O)c1ccccc1F,-,10 µM
c1ccc(-c2csc(Nc3ccncc3)n2)nc1,luminescence,>100 µM
C/C(=N\NC(=O)c1ccncc1)c1ccc(F)cc1,-,>62.5 µg/mL
O=C1NC(=O)c2c1c1c3cc(Br)ccc3[nH]c1c1[nH]c3ccc(Br)cc3c21,-,>125 µM
C=C1C(=O)[C@@]23CC[C@H]4C(C)(CCC[C@@]4(C)C(=O)OC)[C@@H]2CC[C@]1(O)C3,-,62.5 µg/mL
FC(F)(F)c1ccccc1Nc1nc(-c2ccccc2S)cs1,luminescence,13 µM
Cc1cccc2c1[nH]c1c3[nH]c4c(C)cccc4c3c3c(c21)C(=O)NC3=O,-,>31 µM
c1ccc(Nc2nc(-c3ccccn3)cs2)nc1,luminescence,0.2 µM
O=c1[nH]c(=O)n([C@@H]2O[C@H](CO)[C@@H](O)[C@H]2O)[nH]c1=S,neutral red,761 µg/mL
Nc1ccc2nc3ccc(N)cc3[n+](-c3ccccc3)c2c1,-,17.49 µg/mL
FC(F)(F)c1ccc(Nc2nc(-c3ccccn3)cs2)cc1,luminescence,5 µM
Nc1ncnc2c1[nH]c[n+]2C1C[C@H]2[NH2+][C@@H]1c1ccccc12.O=C([O-])C(F)(F)F.O=C([O-])C(F)(F)F,MTS,>99 µM
FC(F)(F)c1ccccc1Nc1nc(-c2ccc3ccccc3c2)cs1,luminescence,56 µM
CN1C(=O)c2c(c3c4ccccc4[nH]c3c3[nH]c4ccccc4c23)C1=O,-,~100 µM
O=C[C@@H](CO)O[C@H](C=O)n1ccc(=O)[nH]c1=O,neutral red,210 µg/mL
CC(C)(C)c1ccc(C(=O)Nc2nccc(-c3ccccn3)n2)cc1,luminescence,14 µM
CCCC1(CN2c3ccccc3Sc3ccccc32)CCN(CC)C1.Cl,-,3.53 µg/mL
COc1ccccc1CNC1N=C(c2ccccc2)c2ccccc2NC1=O,-,20 µM
COc1cc2c3c(c1OC)Oc1ccc(cc1)CC1c4c(cc(OC)c(OC)c4Oc4ccc(cc4)CC3N(C)CC2)CCN1C,-,>12.5 µg/mL
O=C1NC(=O)C(c2c[nH]c3ccccc23)C1c1c[nH]c2ccccc12,-,34 µM
C[N+](C)=c1ccc2nc3c(cc(N)c4ccccc43)oc-2c1,-,0.34 µg/mL
O=C(NC(=O)N1CCOCC1)C1N=C(c2ccccc2)c2ccccc2NC1=O,-,5 µM
O=C(c1ccc([N+](=O)[O-])cc1[N+](=O)[O-])N(N=CC=Cc1ccccc1)c1nnc(-c2ccccc2)c(-c2ccccc2)n1,-,27 µg/mL
CC(=O)Nc1nc(-c2ccccn2)cs1,luminescence,>100 µM
O=C(N/N=C/c1ccc([N+](=O)[O-])s1)c1ccncc1,-,3.6 µg/mL
NC(=O)c1[nH]nc([C@@H]2O[C@H](CO)[C@@H](O)[C@H]2O)c1O,-,90 µg/mL
O=[n+]1c2ccccc2n([O-])c2cc(Br)ccc21,-,0.49 µg/mL
Cc1cc(-c2ccc3c(=O)c(C(N)=O)cn(-c4ccc(F)cc4)c3c2)sn1,-,>100 µg/mL
FC(F)(F)c1[nH]nc(-c2cc3ccccc3o2)c1N=NN1CCOCC1,-,<1.84 µg/mL
Sc1ccccc1-c1csc(Nc2ccccn2)n1,luminescence,48 µM
CCCCCCCCCC(=O)OCCN1CCN(CCCN2c3ccccc3Sc3ccc(C(F)(F)F)cc32)CC1,-,3.39 µg/mL
Cc1ccc(C(=O)Nc2ccc(S(=O)(=O)O)c3cc(S(=O)(=O)O)cc(S(=O)(=O)O)c23)cc1NC(=O)c1cccc(NC(=O)Nc2cccc(C(=O)Nc3cc(C(=O)Nc4ccc(S(=O)(=O)O)c5cc(S(=O)(=O)O)cc(S(=O)(=O)O)c45)ccc3C)c2)c1,neutral red,127 µg/mL